The assay deals with SARS-CoV-2 nsp15 (Severe acute respiratory syndrome coronavirus 2, UniProt P0DTD1). The class given is binding.

Consider 1 compound from PMC8062000, “High-throughput screening of the ReFRAME, Pandemic Box, and COVID Box drug repurposing libraries against SARS-CoV-2 nsp15 endoribonuclease to identify small-molecule inhibitors of viral activity” (PLoS ONE, 2021).

Turning to `COc1cccc2c1C(=O)c1c(O)c3c(c(O)c1C2=O)C[C@@](O)(C(=O)CO)C[C@@H]3O[C@H]1C[C@H](N)[C@H](O)[C@H](C)O1` [Doxorubicin], the “DSF Assay ΔTm” value is -0.5 °C.
